Results of unrelated studies side by side (data: NIAID ChemDB).

Shared fields: tests in culture; species: HIV-1; cell line: MT-4; read-out: EC50

ECn: concentration that inhibits the pathogen or its effect by n%.

compound,strain,mutations,method,result
CCN1C[C@H](C)N2C(=C(O)C3C(=O)N4Cc5cc(F)c(F)cc5OCCCCS(=O)(=O)N(C)C(=N4)C32)C1=O,LAII(IIIB),,,1.1 µM
CCC(O)(c1cccc(C)c1)c1c(C)c(=O)[nH]c(=O)n1COCc1ccccc1,IIIB,,MTT,>154 µM
CCOCn1c(Cc2cccc(Cc3c(CC)c(=O)[nH]c(=O)n3COCC)c2)c(CC)c(=O)[nH]c1=O,RT-K103N+Y181C NNRTI-resistant,RT-K103N Y181C,cytopathic effect / MTT,>100 µM
CCN1C[C@H](C)N2C(=C(O)C3C(=O)N(Cc4ccc(F)c(Cl)c4)N=C(C(=O)NC)C32)C1=O,LAII(IIIB),,,3.4 µM
Cc1cc(-c2ccc(C#N)cc2)cc(C)c1Oc1ccnc(S(=O)(=O)CC(=O)Nc2ccc(Br)cc2)n1,IIIB,L100I,MTT,0.049 µM
CCOCn1c(Cc2ccccc2)c(C(C)C)c(=O)[nH]c1=O,RT-K103N+Y181C NNRTI-resistant,RT-K103N Y181C,cytopathic effect / MTT,>100 µM
COP(=O)(c1cc(C)cc(CCC#N)c1)c1c(C(N)=O)[nH]c2ccc(Cl)c(F)c12,BH10,K103N,cytopathic effect,0.0003 µM
CN(C)C(=O)C(=O)N1CCn2c(nc(C(=O)NCc3ccc(F)cc3)c(O)c2=O)C1,,,p24,<50 µM
C=C(c1ccccc1)c1c(C)c(=O)[nH]c(=O)n1COCc1ccccc1,IIIB,,MTT,5.27 µM
CN1CCN(C(=O)C(=O)N(C)C2COCCn3c2nc(C(=O)NCc2ccc(F)cc2)c(O)c3=O)CC1,,,p24,<1 µM
Cc1cc(-c2ccc(C#N)cc2)cc(C)c1Oc1ccnc(S(=O)(=O)C(C)C(=O)Nc2ccc(C#N)cc2)n1,IIIB,Y188L,MTT,0.726 µM
Cc1cc(/C=C/C#N)cc(C)c1Oc1nc(NC2CCN(Cc3ccc(Br)cc3)CC2)nc2ccsc12,IIIB,NNRTI-resistant (RT K103N),MTT,0.0299 µM
N#Cc1cc(Cl)cc(Oc2cc(OCc3nc4cccc(Cl)c4s3)ccc2Cl)c1,,,p24,<20 µM
CCC(O)(c1ccccc1C)c1c(C)c(=O)[nH]c(=O)n1COCc1ccccc1,IIIB,,MTT,>163 µM
CCN1CCn2c(nc(C(=O)NCc3ccc(F)c(C)c3)c(O)c2=O)C(N(C)C(=O)C(=O)N(C)C)C1,,,p24,<1 µM
CCc1c(Cc2ccc(C)cc2)n(COCC2CC2)c(=O)[nH]c1=O,EFVR,K103R/V179D/P225H,MTT,>100 µM
COc1cc(OC)cc(C(C)(O)c2c(C)c(=O)[nH]c(=O)n2COCc2ccccc2)c1,IIIB,,MTT,>144 µM
Cc1cc(-c2ccc(C#N)cc2)cc(C)c1Oc1ccnc(S(=O)(=O)CC(=O)Nc2ccc(Cl)cc2)n1,IIIB,L100I,MTT,0.116 µM
CCc1c(Cc2ccc(C)cc2)n(COCCc2ccccc2)c(=O)[nH]c1=O,EFVR,K103R/V179D/P225H,MTT,>60 µM
COc1ccc(C(C)c2c(C)c(=O)[nH]c(=O)n2COCc2ccccc2)cc1,IIIB,,MTT,>329 µM
Cc1cc(-c2ccc(C#N)cc2)cc(C)c1Oc1ccnc(S(=O)(=O)CC(=O)NCc2ccc(Cl)cc2)n1,IIIB,,MTT,>3.86 µM
C[C@H]1CN(C2CC2)C(=O)C2=C(O)C3C(=O)N4Cc5ccc(F)cc5OCCCCCNC(=O)C(=N4)C3N21,LAII(IIIB),,,3.29 µM
COC(=O)c1ccc(CN2CCC(Nc3nc(Oc4c(C)cc(C#N)cc4C)c4ccsc4n3)CC2)cc1,RES056,,MTT,15.3 µM
CC(C)c1c(C(C)c2ccc(F)cc2)n(COCc2ccccc2)c(=O)[nH]c1=O,IIIB,F227L + V106A,MTT,>33.73 µM
Cc1cc(-c2ccc(C#N)cc2)cc(C)c1Oc1ccnc(S(=O)(=O)C(C)C(=O)Nc2ccc(Cl)cc2)n1,IIIB,F227L V106A,MTT,2.49 µM
N#Cc1cc(Cl)cc(Oc2cc(OCc3[nH]nc4nc(N5CCC5)ccc34)ccc2Cl)c1,,,p24,<20 µM
Cc1ccccc1CN1CCC(Nc2nc(Oc3c(C)cc(/C=C/C#N)cc3C)c3sccc3n2)CC1,IIIB,NNRTI-resistant (RT Y181C),MTT,0.0857 µM
Cc1cc(-c2ccc(C#N)cc2)cc(C)c1Oc1ccnc(S(=O)(=O)CC(=O)NC(C)c2ccc(Br)cc2)n1,IIIB,,MTT,>3.21 µM
Cc1cc(/C=C/C#N)cc(C)c1Oc1nc(NC2CCN(Cc3cccc(F)c3)CC2)nc2ccsc12,IIIB,NNRTI-resistant (RT F227L V106A),MTT,0.0569 µM
CCOCn1c(Cc2ccc(OC)c(OC)c2)c(CC)c(=O)[nH]c1=O,A17,K103N/Y181C,MTT,>100 µM
CCN1C[C@H](C)N2C(=C(O)C3C(=O)N4Cc5ccc(F)cc5C(=O)NCCCCCCN=C(N4)C32)C1=O,LAII(IIIB),,,994 µM
N#Cc1cc(Cl)cc(Oc2cc(OCc3[nH]nc4nc(N5CC(N)C5)ccc34)ccc2Cl)c1,,,p24,<20 µM
Cc1cc(-c2ccc(C#N)cc2)cc(C)c1Oc1ccnc(S(=O)(=O)CC(=O)Nc2ccc(F)cc2)n1,IIIB,K103N,MTT,0.035 µM
CCc1c(Cc2ccccc2)n(COCCc2ccccc2)c(=O)[nH]c1=O,IIIB,,MTT,0.4 µM
CN1CCn2c(nc(C(=O)NCc3ccc(F)cc3)c(O)c2=O)C(N(C)C(=O)C(=O)N2CCCC2)C1,,,p24,<1 µM
CCOC(=O)c1ccc(CN2CCC(Nc3nc(Oc4c(C)cc(C#N)cc4C)c4ccsc4n3)CC2)cc1,IIIB,NNRTI-resistant (RT Y181C),MTT,1.11 µM
CCc1c(Cc2cccc(Cc3nc(SC)n(C)c(=O)c3CC)c2)nc(SC)nc1OC,NNRTI-resistant,RT-Y181C,cytopathic effect / MTT,>80 µM
CC(=O)N1Cn2c(nc(C(=O)NCc3ccc(F)cc3)c(O)c2=O)C1(C)C,,,p24,<50 µM
Cc1cc(/C=C/C#N)cc(C)c1Oc1nc(NC2CCN(Cc3ccc([N+](=O)[O-])cc3)CC2)nc2ccsc12,IIIB,NNRTI-resistant (RT E138K),MTT,0.0408 µM
C=C(c1ccc(C)cc1)c1c(C)c(=O)[nH]c(=O)n1COCc1ccccc1,IIIB,,MTT,64.66 µM
CCc1c(Cc2cccc(Cc3[nH]c(=O)[nH]c(=O)c3CC)c2)[nH]c(=O)[nH]c1=O,,,cytopathic effect / MTT,>100 µM
N#Cc1cc(Cl)cc(Oc2cc(OCc3nc4ccccc4s3)ccc2Cl)c1,,,p24,<20 µM
CCOCn1c(Cc2ccccc2)c(C(C)C)c(=O)[nH]c1=O,N119,Y181C,MTT,>20 µM
CC(C)CN(C[C@@H](O)[C@H](Cc1ccccc1)NC(=O)O[C@H]1CCOC1)S(=O)(=O)c1ccc(N)cc1,T13436,V32I L76V,reporter gene,2037 nM
Cc1cc(/C=C/C#N)cc(C)c1Oc1ccnc(S(=O)(=O)CC(=O)Nc2ccc(Cl)cc2)n1,IIIB,Y181C,MTT,0.021 µM
C=CCOCn1c(Cc2cccc(Cc3[nH]c(=O)[nH]c(=O)c3CC)c2)c(CC)c(=O)[nH]c1=O,,,cytopathic effect / MTT,11 µM
CCN1C[C@H](C)N2C(=C(O)C3C(=O)N4Cc5cc(Cl)c(F)cc5OCCCCCN(C)C(=O)C(=N4)C32)C1=O,LAII(IIIB),,,11.89 µM
CCc1c(Cc2cccc(Cc3[nH]c(=S)[nH]c(=O)c3CC)c2)[nH]c(=S)[nH]c1=O,NNRTI-resistant,RT-Y181C,cytopathic effect / MTT,>100 µM
Cc1c(C(C)(O)c2ccccc2F)n(COCc2ccccc2)c(=O)[nH]c1=O,IIIB,,MTT,>185 µM
CCc1c(Cc2cccc(Cc3nc(N4CCCCC4)[nH]c(=O)c3CC)c2)nc(N2CCCCC2)[nH]c1=O,NNRTI-resistant,RT-Y181C,cytopathic effect / MTT,>80 µM
O=C1Nc2ccc(Cl)cc2[C@@](C#CC2CC2)(C(F)(F)F)O1,,K103N,MTT,0.119 µM
Cc1cc(C#N)cc(C)c1Oc1ccnc(S(=O)(=O)CC(=O)Nc2ccc(C#N)cc2)n1,RES056,,MTT,0.425 µM
CCOC(=O)C(CC)C(=O)Cc1cccc(Cc2[nH]c(=O)c(CC)c(O)c2CC)c1,,,cytopathic effect / MTT,>100 µM

A second listing of 3 rows from above:

compound,strain,mutations,method,result
C=C(c1ccccc1)c1c(C)c(=O)[nH]c(=O)n1COCc1ccccc1,IIIB,,MTT,5.27 µM
CCN1C[C@H](C)N2C(=C(O)C3C(=O)N4Cc5ccc(F)cc5C(=O)NCCCCCCN=C(N4)C32)C1=O,LAII(IIIB),,,994 µM
Cc1cc(-c2ccc(C#N)cc2)cc(C)c1Oc1ccnc(S(=O)(=O)CC(=O)Nc2ccc(Cl)cc2)n1,IIIB,L100I,MTT,0.116 µM

Lines come from different laboratories, so protocols vary. Blank or dashed fields: not listed here.